Assay results taken from US8501683B2 (priority 2008, dated 2013).

Assays:
[1] = system: hepatitis C virus genotype 1b Con1 replicon; conditions: ratio between CC50 and EC50, Huh 9-13 cells
[2] = system: Concanavalin-A-induced T-cell proliferation; test: Concanavalin-A-induced T-cell proliferation assay (immunosuppression); type: cell-based; conditions: IC50 compound / IC50 CsA; fold less immunosuppressive than CsA
Protocol: To determine whether the cycloundecadepsipepide compounds of the present invention have a non-immunosuppression activity, experiments were carried out that compared the dose-dependent inhibition of Concanavalin-A-induced T-cell proliferation (see Table 2).
The method of the assays were performed as described by Dayton et al. (1992. Mol. Pharmacol. 41. 671-676) and Mishell et al. (1980. Cell proliferation in selected methods in cellular immunology, V, XXIX, W.H. Freeman Co., San Francisco, Calif. 153-160).

Row | SMILES | SI (selectivity index) [1] | IC50 ratio [2]
1 | C/C=C/C[C@@H](C)[C@@H](O)[C@H]1C(=O)N[C@@H](CC)C(=O)N(C)[C@H](C)C(=O)N(C)[C@@H](C(C)C)C(=O)N[C@@H](C(C)C)C(=O)N(C)[C@@H](C)C(=O)N[C@@H](C)C(=O)O[C@H](C(C)C)C(=O)N(C)[C@@H](CC(C)C)C(=O)N[C@@H](CC(C)C)C(=O)N(C)[C@@H](C(C)C)C(=O)N1C [(Ie), cyclo-(MeBmt-Abu-D-MeAla-MeVal-Val-MeAla-Ala-D-Hiv-MeLeu-Leu-MeVal)] (cyclo(A[dHiv][NMeL]L[NMeV][MeBmt][Abu][dNMeA][NMeV]V[NMeA])) | 117.9 | 333
2 | C/C=C/C[C@@H](C)[C@@H](O)[C@H]1C(=O)N[C@@H](CC)C(=O)N(C)[C@H](C)C(=O)N(CC)[C@@H](C(C)C)C(=O)N[C@@H](C(C)C)C(=O)N(C)[C@@H](CC(C)C)C(=O)N[C@@H](C)C(=O)N[C@H](C)C(=O)N(C)[C@@H](CC(C)C)C(=O)N(C)[C@@H](CC(C)C)C(=O)N(C)[C@@H](C(C)C)C(=O)N1C [Debio 025, [D-MeAla]^3-[EtVal]^4-CsA, reference compound] | 73.5 | –
3 | C/C=C/C[C@@H](C)[C@@H](O)[C@H]1C(=O)N[C@@H](CC)C(=O)N(C)[C@H](C)C(=O)N(C)[C@@H](C(C)C)C(=O)N[C@@H](CC(C)C)C(=O)N(C)[C@@H](CC(C)C)C(=O)NCC(=O)O[C@H](C(C)C)C(=O)N(C)[C@@H](CC(C)C)C(=O)N[C@@H](CC(C)C)C(=O)N(C)[C@@H](C(C)C)C(=O)N1C [(Ia), cyclo-(MeBmt-Abu-D-MeAla-MeVal-Leu-MeLeu-Gly-D-Hiv-MeLeu-Leu-MeVal)] (cyclo([Abu][dNMeA][NMeV]L[NMeL]G[dHiv][NMeL]L[NMeV][MeBmt])) | 1791.8 | –
4 | C/C=C/C[C@@H](C)[C@@H](O)[C@H]1C(=O)N[C@@H](CC)C(=O)N(C)[C@H](C)C(=O)N(C)[C@@H](C(C)C)C(=O)N[C@@H]([C@@H](C)CC)C(=O)N(C)[C@@H](CC(C)C)C(=O)NCC(=O)O[C@H](C(C)C)C(=O)N(C)[C@@H](CC(C)C)C(=O)N[C@@H](CC(C)C)C(=O)N(C)[C@@H](C(C)C)C(=O)N1C [(Ig), cyclo-(MeBmt-Abu-D-MeAla-MeVal-Ile-MeLeu-Gly-D-Hiv-MeLeu-Leu-MeVal)] (cyclo([Abu][dNMeA][NMeV]I[NMeL]G[dHiv][NMeL]L[NMeV][MeBmt])) | 2045.2 | –
5 | C/C=C/C[C@@H](C)[C@@H](O)[C@H]1C(=O)N[C@@H](C(C)C)C(=O)N(C)[C@H](C)C(=O)N(C)[C@@H](C(C)C)C(=O)N[C@@H](CC(C)C)C(=O)N(C)[C@@H](CC(C)C)C(=O)NCC(=O)O[C@H](C(C)C)C(=O)N(C)[C@@H](CC(C)C)C(=O)N[C@@H](CC(C)C)C(=O)N(C)[C@@H](C(C)C)C(=O)N1C [(If), cyclo-(MeBmt-Val-D-MeAla-MeVal-Leu-MeLeu-Gly-D-Hiv-MeLeu-Leu-MeVal)] (cyclo(G[dHiv][NMeL]L[NMeV][MeBmt]V[dNMeA][NMeV]L[NMeL])) | 3236.8 | 1288
6 | C/C=C/C[C@@H](C)[C@@H](O)[C@H]1C(=O)N[C@@H](C(C)C)C(=O)N(C)[C@H](C)C(=O)N(C)[C@@H](C(C)C)C(=O)N[C@@H]([C@@H](C)CC)C(=O)N(C)[C@@H](CC(C)C)C(=O)NCC(=O)O[C@H](C(C)C)C(=O)N(C)[C@@H](CC(C)C)C(=O)N[C@@H](CC(C)C)C(=O)N(C)[C@@H](C(C)C)C(=O)N1C [(Ic), cyclo-(MeBmt-Val-D-MeAla-MeVal-Ile-MeLeu-Gly-D-Hiv-MeLeu-Leu-MeVal)] (cyclo(G[dHiv][NMeL]L[NMeV][MeBmt]V[dNMeA][NMeV]I[NMeL])) | 4024.1 | 164
7 | C/C=C/C[C@@H](C)[C@@H](O)[C@H]1C(=O)N[C@@H](CC)C(=O)N(C)[C@H](C)C(=O)N(C)[C@@H](C(C)C)C(=O)N[C@@H](CC(C)C)C(=O)N(C)[C@@H](CC(C)C)C(=O)N[C@@H](C)C(=O)O[C@H](C(C)C)C(=O)N(C)[C@@H](CC(C)C)C(=O)N[C@@H](CC(C)C)C(=O)N(C)[C@@H](C(C)C)C(=O)N1C [(Id), cyclo-(MeBmt-Abu-D-MeAla-MeVal-Leu-MeLeu-Ala-D-Hiv-MeLeu-Leu-MeVal)] (cyclo(A[dHiv][NMeL]L[NMeV][MeBmt][Abu][dNMeA][NMeV]L[NMeL])) | 1745.9 | –
8 | C/C=C/C[C@@H](C)[C@@H](O)[C@H]1C(=O)N[C@@H](C(C)C)C(=O)N(C)[C@H](C)C(=O)N(C)[C@@H](C(C)C)C(=O)N[C@@H](C(C)C)C(=O)N(C)CC(=O)NCC(=O)O[C@H](C(C)C)C(=O)N(C)[C@@H](CC(C)C)C(=O)N[C@@H](CC(C)C)C(=O)N(C)[C@@H](C(C)C)C(=O)N1C [(Ik), cyclo-(MeBmt-Val-D-MeAla-MeVal-Val-Sar-Gly-D-Hiv-MeLeu-Leu-MeVal)] (cyclo(G[dHiv][NMeL]L[NMeV][MeBmt]V[dNMeA][NMeV]V[Sar])) | 132 | –
9 | C/C=C/C[C@@H](C)[C@@H](O)[C@H]1C(=O)N[C@@H](CC)C(=O)N(C)[C@H](C)C(=O)N(C)[C@@H]([C@@H](C)CC)C(=O)N[C@@H](CC(C)C)C(=O)N(C)[C@@H](CC(C)C)C(=O)NCC(=O)O[C@H](C(C)C)C(=O)N(C)[C@@H](CC(C)C)C(=O)N[C@@H](CC(C)C)C(=O)N(C)[C@@H](C(C)C)C(=O)N1C [(Ii), cyclo-(MeBmt-Abu-D-MeAla-MeIle-Leu-MeLeu-Gly-D-Hiv-MeLeu-Leu-MeVal)] (cyclo([Abu][dNMeA][NMeI]L[NMeL]G[dHiv][NMeL]L[NMeV][MeBmt])) | 623.8 | –
10 | C/C=C/C[C@@H](C)[C@@H](O)[C@H]1C(=O)N[C@@H](CC)C(=O)N(C)[C@H](C)C(=O)N(CC)[C@@H](C(C)C)C(=O)N[C@@H](CC(C)C)C(=O)N(C)[C@@H](CC(C)C)C(=O)N[C@@H](C)C(=O)O[C@H](C(C)C)C(=O)N(C)[C@@H](CC(C)C)C(=O)N[C@@H](CC(C)C)C(=O)N(C)[C@@H](C(C)C)C(=O)N1C [(Ib), cyclo-(MeBmt-Abu-D-MeAla-EtVal-Leu-MeLeu-Ala-D-Hiv-MeLeu-Leu-MeVal)] (cyclo(A[dHiv][NMeL]L[NMeV][MeBmt][Abu][dNMeA][NEtVal]L[NMeL])) | 1398 | –
11 | C/C=C/C[C@@H](C)[C@@H](O)[C@H]1C(=O)N[C@@H](C(C)C)C(=O)N(C)[C@H](C)C(=O)N(CC)[C@@H](C(C)C)C(=O)N[C@@H](CC(C)C)C(=O)N(C)[C@@H](CC(C)C)C(=O)N[C@@H](C)C(=O)O[C@H](C(C)C)C(=O)N(C)[C@@H](CC(C)C)C(=O)N[C@@H](CC(C)C)C(=O)N(C)[C@@H](C(C)C)C(=O)N1C [(Ih), cyclo-(MeBmt-Val-D-MeAla-EtVal-Leu-MeLeu-Ala-D-Hiv-MeLeu-Leu-MeVal)] (cyclo(A[dHiv][NMeL]L[NMeV][MeBmt]V[dNMeA][NEtVal]L[NMeL])) | 950 | 290

Square brackets hold non-standard residues; d marks the D form. Peptide text beside a SMILES is read from it. MeBmt = C/C=C/C[C@@H](C)[C@@H](O)[C@H](NC)C(=O)O; NMeI = CC[C@H](C)[C@H](NC)C(=O)O; NEtVal = CCN[C@H](C(=O)O)C(C)C; NMeL = CN[C@@H](CC(C)C)C(=O)O; NMeV = CN[C@H](C(=O)O)C(C)C; dHiv = CC(C)[C@@H](O)C(=O)O; NMeA = CN[C@@H](C)C(=O)O; dNMeA = CN[C@H](C)C(=O)O; Abu = CC[C@H](N)C(=O)O; Sar = CNCC(=O)O
